Source: paper PMC6484134 (The Journal of Biological Chemistry, 2019)

How the values were obtained:
[1] = target: T1, Cul3N (human Cul3 N-terminal domain, residues 1–388, I342R L346D) (human, UniProt Q13618 1-388, I342R | L346D); assay: ITC; conditions: both partners purified
T1 construct: also called Cul3–NTD

[2] = target: T2, Cul3NΔ22 (human Cul3 N-terminal domain, residues 23–388, I342R L346D) (human, UniProt Q13618 23-388, I342R | L346D); assay: ITC; conditions: both partners purified
T2 construct: also called Cul3–NTD; Cu3NΔ22

B1: KLHL3-BB (human KLHL3 BTB-BACK domain, residues 24–276) (domain or fragment, UniProt Q9UH77 24-276, looked up)
chain: RTITVNPAHMGKAFKVMNELRSKQLLCDVMIVAEDVEIEAHRVVLAACSPYFCAMFTGDMSESKAKKIEIKDVDGQTLSKLIDYIYTAEIEVTEENVQVLLPAASLLQLMDVRQNCCDFLQSQLHPTNCLGIRAFADVHTCTDLLQQANAYAEQHFPEVMLGEEFLSLSLDQVCSLISSDKLTVSSEEKVFEAVISWINYEKETRLEHMAKLMEHVRLPLLPRDYLVQTVEEEALIKNNNTCKDFLIEAMKYH
Kd [1]: 17 nM
dH [1]: -24.9 kcal/mol
Kd [2]: 52.8 nM
